Laboratory results: paper PMC10496123, “Potent Antifungal Activity of Penta-O-galloyl-β-D-Glucose against Drug-Resistant Candida albicans, Candida auris, and Other Non-albicans Candida Species” (ACS Infectious Diseases, 2023)

Key:
[1] = 2,2′-Bipyridyl test of iron binding; assay type: physicochemical; conditions: pH 2.0, 10 μM ligand
[2] = cited from earlier work

O=C(OC[C@H]1O[C@@H](OC(=O)c2cc(O)c(O)c(O)c2)[C@H](OC(=O)c2cc(O)c(O)c(O)c2)[C@@H](OC(=O)c2cc(O)c(O)c(O)c2)[C@@H]1OC(=O)c1cc(O)c(O)c(O)c1)c1cc(O)c(O)c(O)c1 [PGG, penta-O-galloyl-β-D-glucose]
Amount of iron (III) bound compared to EGCG ([1]; excess iron (III)): more than 2 ×
Fe^3+ ions reduced to Fe^2+ ions per molecule ([1]; highest tested iron concentrations): 10

Cc1cc(C2CCCCC2)n(O)c(=O)c1 [ciclopirox]
Iron-binding stoichiometry [2]: three molecules of ciclopirox bind one iron ion

O=C(O[C@@H]1Cc2c(O)cc(O)cc2O[C@@H]1c1cc(O)c(O)c(O)c1)c1cc(O)c(O)c(O)c1 [EGCG, epigallocatechin-gallate]
Iron (III) ions bound per molecule [2]: up to two
